{"sequences": {"note": "Amino acid sequences for entries named in this document (tags omitted). A change or cut given only in a name is not applied to a line headed by its entry. Residues count along the entry.", "UniProt Q96PU5, 494-533": "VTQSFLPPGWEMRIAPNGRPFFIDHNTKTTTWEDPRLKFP", "UniProt Q96PU5, 497-530": "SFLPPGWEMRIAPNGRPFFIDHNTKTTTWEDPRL", "UniProt Q69559": "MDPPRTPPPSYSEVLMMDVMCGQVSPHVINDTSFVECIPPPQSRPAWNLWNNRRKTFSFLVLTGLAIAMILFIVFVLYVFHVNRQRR"}, "source": "paper PMC9696605", "origin": "cited, not measured here", "key": {"[1]": {"molecular_target": "hNedd4L WW3* (Homo sapiens) (UniProt Q96PU5)"}, "[2]": {"molecular_target": "hNedd4L-WW3* WW3* (497-530) (Homo sapiens) (UniProt Q96PU5)", "assay": "ITC"}}, "data": [{"substance": "pU24-6A (from UniProt Q69559)", "values": [{"measurement": "Kd", "setting": "[1]", "result": 760, "unit": "nM"}, {"measurement": "Kd", "setting": "[2]", "result": 760, "unit": "nM"}]}]}
